Data as given in PubChem BioAssay AID1259414 (Drosophila RNAi Screening Center, 2018).
The screen tested about 24,000 reagents; below is a random part of those with a known target gene and a result. In the full data, about 1,210 (5%) are marked active. 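Inactive calls also include excluded dsRNAs with several or no targets, genes unexpressed in JW18, and well A1, regardless of score.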 Names joined by + are all predicted targets of the reagent.

Assay: 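Host factors increasing or decreasing Wolbachia levels in cultured fly cells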 (primary screen)
System: Drosophila JW18 cells infected with Wolbachia
Reagents: long dsRNA against Drosophila genes, 0.25 µg dsRNA per well of a 384-well plate
Timing: 5 days
Conditions: cells persistently infected with Wolbachia before knock-down; no added drug
Read-out: 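Imaged fluorescence in situ signal for Wolbachia 23S rRNA per DAPI-counted host cell, given as a robust z-score within each plate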
Scale: Wolbachia per cell robust z: higher = more Wolbachia per host cell than the plate typical
Rule for the call: 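Active if absolute robust z reaches 1.5 in two or more of three replicates, leaving out multi- or no-target dsRNAs, genes unexpressed in JW18 and A1 wells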

target,amplicon,"Wolbachia per cell robust z, rep 1","Wolbachia per cell robust z, rep 2","Wolbachia per cell robust z, rep 3",activity call
CG4781,DRSC04488,0.439,0.166,0.0838,inactive
CG4271,DRSC00649,1.46,-7.6,2.04,inactive
CG17715,DRSC11950,-0.27,0.819,0.616,inactive
Iris,DRSC00663,-0.977,0.423,0.607,inactive
CG6059,DRSC15958,-0.341,-0.0349,0.198,inactive
CG10734,DRSC05998,0.474,0.984,-2.09,inactive
St4 (Sulfotransferase 4),DRSC07008,0.046,0.752,0.666,inactive
CG8646,DRSC07230,-0.241,0.373,0.0563,inactive
Debcl (Death executioner Bcl-2),DRSC04965,0.573,0.457,0.749,inactive
Debcl (Death executioner Bcl-2),DRSC30010,1.23,-2.23,0.827,inactive
CG10353,DRSC19354,-0.885,-0.414,0.213,inactive
CG10353,DRSC29888,0.243,0.678,-0.0772,inactive
Msr-110,DRSC11227,-0.772,1.23,0.187,inactive
Msr-110,DRSC25246,-4.6,-0.974,-0.443,inactive
CG4891,DRSC01936,-0.1,-1.1,0.209,inactive
CG4891,DRSC24341,0.247,-0.326,0.282,inactive
Pyroxd1 (Pyridine nucleotide-disulfide oxidoreductase domain 1),DRSC02098,0.573,-5.69,0.461,inactive
Drsl5 (Drosomycin-like 5),DRSC08159,0.675,-3.15,-0.277,inactive
CG15635,DRSC00470,-2.52,-3.03,-1.15,inactive
CG15635,DRSC22873,-1.29,-1.49,-3.32,inactive
rsh (radish),DRSC19687,-1.05,0.465,-0.949,inactive
rsh (radish),DRSC22865,-0.602,-2.04,-1.7,inactive
rsh (radish),DRSC23355,-0.191,0.824,-0.165,inactive
Tim17b2 (Translocase inner membrane 17),DRSC28544,-1.63,-2.19,-1.85,inactive
sncRNA:430a + sncRNA:430f + His2A:CG33835 + 42 more,DRSC25850,3.63,6.1,8.99,inactive
CG10589,DRSC11629,-0.21,0.868,0.774,inactive
Dic4,DRSC10317,0.866,-0.37,1.01,inactive
CG31933,DRSC00457,-0.55,0.21,-0.851,inactive
Ns3 (Nucleostemin 3),DRSC18607,0.604,-0.0254,0.152,inactive
Ns3 (Nucleostemin 3),DRSC25847,-0.859,-0.224,-1.52,inactive
vig2,DRSC14402,1.16,0.23,0.905,inactive
vig2,DRSC30012,-5.99,0.00591,-0.0207,inactive
Sfp23F (Seminal fluid protein 23F),DRSC40644,-1.4,-0.985,-1.38,inactive
CG31259,DRSC14366,-0.542,0.479,0.331,inactive
aurA (aurora A),DRSC16905,-0.412,0.777,-3.81,inactive
aurA (aurora A),DRSC27171,1.16,1.45,1.23,inactive
aurA (aurora A),DRSC41549,-2.03,-0.851,-3.72,active
kug (kugelei),DRSC10911,0.0592,-0.517,-4.29,inactive
Ns1 (Nucleostemin 1),DRSC15529,0.141,0.62,2.43,inactive
CG9231,DRSC11054,-0.0642,-2.75,-0.861,inactive
CG6621,DRSC16076,-1.2,-0.446,-2.08,inactive
CG6621,DRSC26979,1.16,-0.718,1.09,inactive
subdued,DRSC15137,0.228,0.573,0.369,inactive
ssp5 (short spindle 5),DRSC14955,0.299,-0.323,0.433,inactive

Continued (3 carried over from the part before).
target,amplicon,"Wolbachia per cell robust z, rep 1","Wolbachia per cell robust z, rep 2","Wolbachia per cell robust z, rep 3",activity call
CG6621,DRSC26979,1.16,-0.718,1.09,inactive
subdued,DRSC15137,0.228,0.573,0.369,inactive
ssp5 (short spindle 5),DRSC14955,0.299,-0.323,0.433,inactive
CG14712,DRSC14935,0.525,0.786,1.03,inactive
Osi1 (Osiris 1),DRSC12271,-1.08,-0.331,-1.26,inactive
dyl (dusky-like),DRSC08466,-0.892,-0.442,-4.33,inactive
dyl (dusky-like),DRSC08467,-1.11,-0.657,-0.827,inactive
dyl (dusky-like),DRSC24188,0.913,0.433,0.171,inactive
RNaseZ (Ribonuclease Z),DRSC06845,-0.997,0.0548,0.00233,inactive
CG3610,DRSC15502,1.64,1.64,-0.598,inactive
CG3610,DRSC27339,0.764,-0.849,0.701,inactive
CG32483,DRSC07902,0.0697,-0.147,0.295,inactive
obe (obelus),DRSC15736,-0.781,0.395,-0.623,inactive
Peritrophin-15b,DRSC02266,0.182,-0.111,-0.538,inactive
Ir47a (Ionotropic receptor 47a),DRSC06215,0.614,0.32,0.772,inactive
Boot (Bootlegger),DRSC06412,-1.18,-2.81,-0.832,inactive
LPCAT (Lysophosphatidylcholine acyltransferase),DRSC18157,0.333,0.723,-3.2,inactive
LPCAT (Lysophosphatidylcholine acyltransferase),DRSC18257,0.483,0.496,0.428,inactive
Archease,DRSC16025,0.062,-0.0445,1.02,inactive
Abl (Abl tyrosine kinase),DRSC09661,-0.247,-0.231,-0.942,inactive
Abl (Abl tyrosine kinase),DRSC23306,0.14,-0.253,-0.0188,inactive
Pdrg1 (Pdrg1 prefoldin-like subunit),DRSC28485,-2.15,-0.587,-3.21,active
CdGAPr (Cd GTPase activating protein-related),DRSC03289,-1.96,0.595,0.525,inactive
tweek,DRSC02433,0.000264,0.454,0.617,inactive
tweek,DRSC02434,0.248,-0.229,-2.89,inactive
tweek,DRSC23133,0.0843,-1.84,-0.08,inactive
bc10,DRSC11326,-3.8,0.492,-0.5,inactive
Stlk (Ste20-like kinase),DRSC22687,-2.34,0.73,-0.338,inactive
CG3430,DRSC02713,0.15,1.38,-11.6,inactive
Lgr4 (Leucine-rich repeat-containing G protein-coupled receptor 4),DRSC18970,-4.38,-1.27,-10.9,inactive
Lgr4 (Leucine-rich repeat-containing G protein-coupled receptor 4),DRSC19884,0.679,-0.242,0.973,inactive
Lgr4 (Leucine-rich repeat-containing G protein-coupled receptor 4),DRSC24434,0.184,2.06,-1.09,inactive
CG33331 + CG33332,DRSC22928,-0.36,0.504,0.104,inactive
CG14657,DRSC12219,-6.36,0.0155,0.392,inactive
CG14657,DRSC12243,0.911,-0.0411,-0.181,inactive
MAPk-Ak2 (MAP kinase activated protein-kinase-2),DRSC18678,0.519,-0.162,0.556,inactive
MAPk-Ak2 (MAP kinase activated protein-kinase-2),DRSC29642,0.898,1.19,0.539,inactive
MAPk-Ak2 (MAP kinase activated protein-kinase-2),DRSC41556,-1.69,0.395,0.508,inactive
CG12325,DRSC06130,-0.0859,-2.37,0.752,inactive
CG6180,DRSC02937,0.102,-0.393,1.01,inactive
CG6180,DRSC25726,0.252,-0.363,0.0912,inactive
RpL12 (Ribosomal protein L12),DRSC04344,1.35,4.17,1.99,active
CG1620,DRSC06603,0.839,-0.000616,-0.197,inactive
CG1620,DRSC29378,1.65,1.15,0.716,inactive
Rnmt (RNA guanine-7 methyltransferase),DRSC03558,0.137,0.0509,-0.953,inactive
NAAT1 (Nutrient Amino Acid Transporter 1),DRSC18300,1.29,0.0866,1.52,inactive
NAAT1 (Nutrient Amino Acid Transporter 1),DRSC25615,0.846,1.8,0.0887,inactive
